Data source: PubChem BioAssay AID504761 (Drosophila RNAi Screening Center, 2011)
The deposit covers about 22,000 reagents; shown is an unselected part of those that have a named target and a result. Of all reagents, 116 (0.52%) were called active. 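Calls depend on retest data that are not deposited; infection was ranked per plate without normalising between plates; the unit of the infection score is not given.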 The raw values are shown without normalisation. A number with no mark means an inactive call. Further read-outs or replicates are left out here. Not given: the amount of reagent, the time to read-out.

- Aim: 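Fly genes whose silencing reduces dengue virus type 2 infection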 (primary screen)
- Cells: D.Mel-2 cells from Drosophila
- Knock-down reagent: long dsRNA against Drosophila genes
- Conditions: infection with dengue virus type 2; dose and infection time not stated
- Detection: 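Per well on two replicate plates, imaging gave the percent of cells positive for viral envelope protein, ranked by infection, and a nuclear count of cells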
- Reading the numbers: infection score: higher = more virus-infected cells; cell count: higher = more cells in the well
- Rule for the call: 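Very low infection ranking in both replicate wells (chance probability at most 0.065), then a retest showing infection dropped 1.5-fold or more at p below 0.05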
- Meaning of the calls: active = confirmed: knock-down lowers infection; inactive = not picked or not confirmed

After knock-down of CG40551 (retired record) [DRSC21229], the record shows infection score, replicate 1 = 9.14; cell count, replicate 1 = 6529.
CG13510 [DRSC04152] scored infection score, replicate 1 = 7.94; cell count, replicate 1 = 6084.
Knock-down of Cds [DRSC10938] resulted in: infection score, replicate 1 = 8.21; cell count, replicate 1 = 6336.
For brm [DRSC11330] the deposit lists infection score, replicate 1 = 0.14 (active); cell count, replicate 1 = 5585.
Against brm [DRSC26226] the deposit lists infection score, replicate 1 = 4.16; cell count, replicate 1 = 1682.
With knock-down of CG13088 [DRSC02192], the record shows infection score, replicate 1 = 4.49; cell count, replicate 1 = 6163.
For CG5096 [DRSC02813], the values are infection score, replicate 1 = 16.9; cell count, replicate 1 = 6000.
Against CG12155 [DRSC23294], the values are infection score, replicate 1 = 1.79; cell count, replicate 1 = 6152.
For Drep2 [DRSC07528] the deposit lists infection score, replicate 1 = 10.9; cell count, replicate 1 = 5360.
For Drep2 [DRSC25612], the entry reads infection score, replicate 1 = 4.16; cell count, replicate 1 = 5557.
Silencing of CG32591 [DRSC19063] gave: infection score, replicate 1 = 0.08; cell count, replicate 1 = 6243.
Su(P) [DRSC11291] scored infection score, replicate 1 = 2.55; cell count, replicate 1 = 6431.
Against Su(P) [DRSC29947] the deposit lists infection score, replicate 1 = 8.94; cell count, replicate 1 = 6464.

Hits, of those listed so far:
brm [DRSC11330] → infection score, replicate 1: 0.14 (active); cell count, replicate 1: 5585
